According to the supplement of paper PMC9931576:
Human monoclonal antibodies against the spike receptor-binding domain (heavy:light variable regions). IC50 against pseudoviruses bearing the spike of naturally observed variants; lower = stronger; >10 µg/ml means not reached at the top dose. No active / inactive call. The stated detection limit is 0.0005 µg/ml; values near or below 0.001 µg/ml lie at the floor of the assay.

B1: BD55-6669 (protein)
chain 1: EVRLVESGGGLVKPGGSLRLSCAASGFSFSDAWMSWVRQAPGKGLEWVGHIKSEISGGTTDYAAPVKGRFTISRDDSKNTVYLQMNSLKTEDTAMYYCVSSDIWRYYHYGMDVWGPGTTVTVSS
chain 2: DIQMTQSPSILSASVGDRVTITCRASQSISSWLAWYQQKPGKAPKLLIYKASTLESGVPSRFSGSGSGTEFTLTISSLQPDDFATYYCQQYNSYPLTFGGGTKVQIK
B2: BD55-6649 (protein)
chain 1: EVQLVESGGGLVQPGGSLRLSCAASGFTFNTYDMHWIRQVSGKGLEWVSTIGTAGDTYYPDSVKGRFTISRENVKNSLYLQMSSLRAGDTATYYCVRASTYGYYVYFDYWGQGTLVTVSS
chain 2: DFQMTQSPSSLSASVGDTVTITCRASQSIGRYLNWYQQKPGKAPKLLIYVVSTLQSGVPSRFSGSGSGTDFSLTIRSLQPEDFATYYCQQSYSTAEYTFGQGTKLEIK
B3: BD55-6646 (protein)
chain 1: EVQLVESGGGLVQPGGSLRISCAVSGFTFRTYWMTWVRQAPGKGLEWVANINQDGTEEYYVDSVKGRFTISRDNAENSLHLQMNNLRAEDSAVYYCARGEKDVVVVGPIPMEYVQHWGQGTLVTVSS
chain 2: SYELTQAPSVSVSPGQTARITCSADAFPRQYGHWYQQKPGQAPVLVIYKDRERPSGIPERFSGSSSGTTVTLTISGVQAEDEADYYCQTADSSGTKMVFGGGTKLAVL
B4: BD55-6672 (protein)
chain 1: QVTLKESGPVLVKPTETLTLTCTVSGFSLSNAKLGVSWIRQPPGKALEWLAHIFSNDEKSYNTFLMSRLTISKDTSRSQVVLTLTNLDPMDTGTYHCARLSNSWFGYYFDYWGQGTLVTVSS
chain 2: DIQMTQSPSSLSASIGDRVTITCRASQSISSYLNWYQQKSGEAPKLLIYAASTLQTGVPSRFSGSGSGTDFTLTISGLQPDDFAIYYCQQSYTTLLTFGGGTKVEIK
B5: BD55-6674 (protein)
chain 1: EVKLVESGGGLVQPGGSLRLSCAGSGFIFSDHWMSWVRQTPGKGLEWVANINQDGSERYYVDSVRGRFTISRDDAKKSLSLQMNGLTVEDTAVYYCARGDSIRWYTEYFQLWGQGALVTVSS
chain 2: SELTQPPSLSVSPGQTARVSCSGDALARQHAYWYQQKPGQAPVLLIYKDKERPSGIPERFSGSDSGTTATLTITGVQAEDEADYFCQSADSSASHYVFGSGTKVTVL
B6: BD55-6665 (protein)
chain 1: QVQLVQSGAEVKKPGASVKVSCKASGYTFTSYDIHWVRQATGQGLEWMGRMNPSSANTDYAHKFQSRVTMTRNTSINTVYMELSGLRFEDTAVYYCAREGRDLGFYYYYGMDVWGQGTTVTVSS
chain 2: DIQMTQSPSSLSASVGDKITITCRASQSITTYLNWYQQKPGKPPKLLVYAASSLQSGVPSRFSGSGSGTDFTLTISSLQPEDFATYHCQQSYSTPTTFGQGTQVEIK
B7: BD55-6629 (protein)
chain 1: QLQLQESGPGLVKPSETLSLTCSVSGGFISSTIYYWGWIRQPPGKRLEWIGSLDYSGDTYSSPSLKSRVTISVDTSKNQFSLNLRSVTAADTAVYYCARPRLISGYSNDWEGPTYYFDSWGQGILVTVSS
chain 2: SYVLTQPPSVSVAPGETATITCGGNNLGTTSVHWYQQKPGQAPVVVVFDNSGRPSGIPERLSGSNSGNTATLTISRVEDGDEADYYCQVWDKSSNVVIFGGGTKVSVL
B8: BD55-6642 (protein)
chain 1: QVQLVQSGAEMKKPGASVKVSCRASGYTFTNYHIHWVRQVPGLGLEWMGIINPVAGVTGYAQKFEGRVTMTRDTSTSTVYMELNSLTSEDTAVYFCARDFAFSREYSGYDILDTRWFDPWGQGTLVTVSS
chain 2: DIVMTQSPDSLAVSLGERATINCKSSQSVLYSSNNKNYLAWYQQRPGQPPKVLIYWASTRQSGVPDRFSGSGSGTDFTLTISSLQAEDVAVYYCQQYYSSPLTFGGGTKVEIR
B9: BD55-6640 (protein)
chain 1: QVQLVQSGAEVKKPGASVKVSCKASGYTFASHDIHWVRQATGQGPEWMGWMNPNSGDTGFAHKFQGRVAMTRNTSINTAYMELSSLRSEDTAVYFCAIAFSSAHQPLLFVDYYYGLDVWGQGSTVTVSS
chain 2: DIQMTQSPSSLSASVGDRVTIICRASQSISNYLNWYQQKPGKAPKLLIYGASSLQSGVPSRFSGSGSGTDFTLTISNLQPEDFATYYCQQSYSTPPTFGGGTKVEIK
B10: BD55-6673 (protein)
chain 1: EVQLVESGGGLVKPGRSLRLSCTASGFTFGDYAMSWFRQAPGKGLEWVGFIRSKTHGGTTEDAASVKGRFTISRDDSKSIAYLQMNSLKTEDTAVYYCTREGTYSYYYYYAMDVWGQGTTVTVSS
chain 2: DIQMTQSPSSLSASVGDRVTITCRASQSISYYLNWYQQKPGKAPKLLIYAASSLQSGVPSRFSGSGSGTDFTLTISSLQPEDFATYYCQHSYSIPITFGQGTRLEIK
B11: BD55-6632 (protein)
chain 1: QVQLVESGGGVVQPGSSLRLSCAASGFIFSNYDIHWVRQAPGKGLEWVAVISYDGSSKFYADSVKGRFAISRDNSKSTLQLSSLRPEDTAVYYCAKEQSYDTLTGLYYFDYWGQGTLVTVSS
chain 2: DIQMTQSPSSLSASVGDRVTITCRASQSIGNHLNWYQQKPGKAPKPLIYAASNLQSGVPSRFSGSGAGTHFTLTISSLQPEDFATYYCQQNYNTPQITFGPGTKVDV
B12: BD55-6636 (protein)
chain 1: EVQLLESGGGLGQPGGSLRLSCTASGFTFSSYSMNWVRQAPGRGLEWVSVIDRSGAGTFYADSVKGRFTISRDNSKNTVYLQLNSLTDEDTAIYYCAKDFGPTIAFDAFDVWGQGTIVTVSS
chain 2: DIQMTQSPSSLSASIGDRVTITCRASQSISTFLNWYQQKSGKAPKLLIYGSSNLQSGVPSRFSGSGSGTHFTLTISSLQPEDFATYYCQQSYTSPPPTFGGGTKVEIK

These binders were tested against SARS-CoV-2 Omicron BA.1 spike pseudovirus (assay: pseudovirus neutralization IC50; higher = weaker neutralization).
Method: (§1)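 Single-round VSV luciferase pseudovirus mixed with antibody dilutions for 1 h and put on Huh-7 cells for about a day; IC50 from the dose curve.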
With B1 the “pseudovirus neutralization IC50” value was > 10 µg/mL. With B2 the “pseudovirus neutralization IC50” value was > 10 µg/mL. In the case of B3, the “pseudovirus neutralization IC50” value is reported as > 10 µg/mL. For B4, the “pseudovirus neutralization IC50” value was > 10 µg/mL. B5 was tested, and the “pseudovirus neutralization IC50” value was > 10 µg/mL. With B6 the “pseudovirus neutralization IC50” value was > 10 µg/mL. In the case of B7, the “pseudovirus neutralization IC50” value is reported as > 10 µg/mL. With B8 the “pseudovirus neutralization IC50” value was > 10 µg/mL. B9 was tested, and the “pseudovirus neutralization IC50” value was > 10 µg/mL. For B10, the “pseudovirus neutralization IC50” value was > 10 µg/mL. B11 was tested, and the “pseudovirus neutralization IC50” value was 4.76 µg/mL. In the case of B12, the “pseudovirus neutralization IC50” value is reported as > 10 µg/mL.

The binders below were run against SARS-CoV-2 Omicron BA.2 spike pseudovirus in the same assay as above.
Method: as §1
For B1, the “pseudovirus neutralization IC50” value was > 10 µg/mL. In the case of B2, the “pseudovirus neutralization IC50” value is reported as > 10 µg/mL. In the case of B3, the “pseudovirus neutralization IC50” value is reported as > 10 µg/mL. In the case of B4, the “pseudovirus neutralization IC50” value is reported as > 10 µg/mL. With B5 the “pseudovirus neutralization IC50” value was > 10 µg/mL. With B6 the “pseudovirus neutralization IC50” value was > 10 µg/mL. For B7, the “pseudovirus neutralization IC50” value was > 10 µg/mL. With B8 the “pseudovirus neutralization IC50” value was > 10 µg/mL. With B9 the “pseudovirus neutralization IC50” value was > 10 µg/mL. In the case of B10, the “pseudovirus neutralization IC50” value is reported as > 10 µg/mL. For B11, the “pseudovirus neutralization IC50” value was 4.83 µg/mL. For B12, the “pseudovirus neutralization IC50” value was > 10 µg/mL.

The binders below were run against SARS-CoV-2 Omicron BA.2.75 spike pseudovirus in the same assay as above.
Method: as §1
B1 was tested, and the “pseudovirus neutralization IC50” value was > 10 µg/mL. For B2, the “pseudovirus neutralization IC50” value was > 10 µg/mL. For B3, the “pseudovirus neutralization IC50” value was > 10 µg/mL. B4 was tested, and the “pseudovirus neutralization IC50” value was > 10 µg/mL. With B5 the “pseudovirus neutralization IC50” value was > 10 µg/mL. In the case of B6, the “pseudovirus neutralization IC50” value is reported as > 10 µg/mL. With B7 the “pseudovirus neutralization IC50” value was > 10 µg/mL. For B8, the “pseudovirus neutralization IC50” value was > 10 µg/mL. For B9, the “pseudovirus neutralization IC50” value was > 10 µg/mL. B10 was tested, and the “pseudovirus neutralization IC50” value was > 10 µg/mL. B11 was tested, and the “pseudovirus neutralization IC50” value was 9.45 µg/mL. B12 was tested, and the “pseudovirus neutralization IC50” value was > 10 µg/mL.

What follows are binders tested against SARS-CoV-2 Omicron BA.5 spike pseudovirus in the same assay as above.
Method: as §1
With B1 the “pseudovirus neutralization IC50” value was > 10 µg/mL. For B2, the “pseudovirus neutralization IC50” value was > 10 µg/mL. With B3 the “pseudovirus neutralization IC50” value was > 10 µg/mL. For B4, the “pseudovirus neutralization IC50” value was > 10 µg/mL. In the case of B5, the “pseudovirus neutralization IC50” value is reported as > 10 µg/mL. For B6, the “pseudovirus neutralization IC50” value was > 10 µg/mL. In the case of B7, the “pseudovirus neutralization IC50” value is reported as > 10 µg/mL. For B8, the “pseudovirus neutralization IC50” value was > 10 µg/mL. With B9 the “pseudovirus neutralization IC50” value was > 10 µg/mL. With B10 the “pseudovirus neutralization IC50” value was > 10 µg/mL. For B11, the “pseudovirus neutralization IC50” value was 5.92 µg/mL. In the case of B12, the “pseudovirus neutralization IC50” value is reported as > 10 µg/mL.

The binders below were run against SARS-CoV-2 Omicron BQ.1.1 spike pseudovirus in the same assay as above.
Method: as §1
With B1 the “pseudovirus neutralization IC50” value was > 10 µg/mL. B2 was tested, and the “pseudovirus neutralization IC50” value was > 10 µg/mL. For B3, the “pseudovirus neutralization IC50” value was > 10 µg/mL. With B4 the “pseudovirus neutralization IC50” value was > 10 µg/mL. B5 was tested, and the “pseudovirus neutralization IC50” value was > 10 µg/mL. With B6 the “pseudovirus neutralization IC50” value was > 10 µg/mL. For B7, the “pseudovirus neutralization IC50” value was > 10 µg/mL. B8 was tested, and the “pseudovirus neutralization IC50” value was > 10 µg/mL. For B9, the “pseudovirus neutralization IC50” value was > 10 µg/mL. With B10 the “pseudovirus neutralization IC50” value was > 10 µg/mL. B11 was tested, and the “pseudovirus neutralization IC50” value was 6.21 µg/mL. B12 was tested, and the “pseudovirus neutralization IC50” value was > 10 µg/mL.

The binders below were run against SARS-CoV-2 Omicron XBB spike pseudovirus in the same assay as above.
Method: as §1
For B1, the “pseudovirus neutralization IC50” value was > 10 µg/mL. In the case of B2, the “pseudovirus neutralization IC50” value is reported as > 10 µg/mL. For B3, the “pseudovirus neutralization IC50” value was > 10 µg/mL. For B4, the “pseudovirus neutralization IC50” value was > 10 µg/mL. With B5 the “pseudovirus neutralization IC50” value was > 10 µg/mL. For B6, the “pseudovirus neutralization IC50” value was > 10 µg/mL. In the case of B7, the “pseudovirus neutralization IC50” value is reported as > 10 µg/mL. B8 was tested, and the “pseudovirus neutralization IC50” value was > 10 µg/mL. In the case of B9, the “pseudovirus neutralization IC50” value is reported as > 10 µg/mL. With B10 the “pseudovirus neutralization IC50” value was > 10 µg/mL. In the case of B11, the “pseudovirus neutralization IC50” value is reported as 4.15 µg/mL. In the case of B12, the “pseudovirus neutralization IC50” value is reported as > 10 µg/mL.

The binders below were run against SARS-CoV-2 early D614G spike pseudovirus in the same assay as above.
Method: as §1
With B1 the “pseudovirus neutralization IC50” value was > 10 µg/mL. In the case of B2, the “pseudovirus neutralization IC50” value is reported as > 10 µg/mL. In the case of B3, the “pseudovirus neutralization IC50” value is reported as > 10 µg/mL. B4 was tested, and the “pseudovirus neutralization IC50” value was > 10 µg/mL. With B5 the “pseudovirus neutralization IC50” value was > 10 µg/mL. In the case of B6, the “pseudovirus neutralization IC50” value is reported as > 10 µg/mL. In the case of B7, the “pseudovirus neutralization IC50” value is reported as 9.4 µg/mL. For B8, the “pseudovirus neutralization IC50” value was 0.135 µg/mL. B9 was tested, and the “pseudovirus neutralization IC50” value was > 10 µg/mL. With B10 the “pseudovirus neutralization IC50” value was > 10 µg/mL. With B11 the “pseudovirus neutralization IC50” value was 0.778 µg/mL. B12 was tested, and the “pseudovirus neutralization IC50” value was > 10 µg/mL.
